Compound potency records, mixed from different reports. Data source: NIAID ChemDB in PubChem.

All rows: whole-cell or culture tests; species: Mycobacterium tuberculosis

Two numbers with a dash give a range or band.

compound	mutations	method	dose	strain or isolate	conditions	read-out	result
CCn1cc(C(=O)O)c(=O)c2cc(F)c(N3CCNCC3)cc21				H37RV (INH-R)		MIC	31.2 µg/mL
O=C1OC2(CCCCC2)OC(=O)C1=C/C=C/c1ccc([N+](=O)[O-])o1		BACTEC		H37Rv		MIC bound	>12.5 µg/mL
C[N+](C)(CCCN1c2ccccc2Sc2ccc(Cl)cc21)Cc1ccccc1				H37Rv		MIC	1.11 µg/mL
CC1(C)O[C@H]2O[C@H](C(N)CC(=O)O)[C@H](OCc3ccccc3)[C@H]2O1				H37Ra		MIC	>100 µg/mL
Cc1cn(-c2ccccc2)c(C)c(C(=O)O)c1=O		BACTEC	12.5 µg/mL	H37Rv		inhibition	23%
COc1ccc(N2CCN(c3nc(Nc4ccc(C#N)c(C(F)(F)F)c4)nc(Oc4cccc5cccnc45)n3)CC2)cc1		agar		H37Rv		MIC99	6.25 µg/mL
c1ccc2c(c1)nc1nc3c(cn12)CCCC3		resazurin		H37Rv		MIC bound	>6.25 µg/mL
CCOC(=O)CC(NC(C)CCCC(C)C)[C@H]1O[C@@H]2OC(C)(C)O[C@@H]2[C@H]1OCc1ccccc1				H37Rv		MIC	25 µg/mL
CCOc1cc(/C=N/NC(=O)c2ccc(NC(=O)c3ccc(OC)cc3)cc2)ccc1O				H37Rv		MIC	>6.25 µg/mL
CC1(C)O[C@H]2[C@@H](O1)[C@@H](Cn1ccnc1[N+](=O)[O-])O[C@@H]1OC(C)(C)O[C@@H]12		agar		H37Rv		MIC	6.25 µg/mL
CC1COc2c(N3CCN(C)CC3)c(F)cc3c(=O)c(C(=O)O)cn1c23				H37Rv		MIC	0.63 µg/mL
Nc1nc2nc(C(=O)O)c(=S)[nH]c2c(=O)[nH]1		BACTEC		H37Rv		MIC bound	>12.5 µg/mL
CCCCCCOC(=O)c1cnccn1	Pyrazinamide-resistant	resazurin			pH 6.0	MIC90	>480 µM
O=S1(=O)CS(=O)(=O)OCCCCO1		BACTEC		H37Rv		MIC bound	>12.5 µg/mL
N/C(COc1ccc(Cl)cc1)=N/NC(=O)c1ccncc1				INH-r		MIC	25 µg/mL
NNC(=O)C1=CN(Cc2ccccc2)C=CC1		BACTEC		H37Rv		MIC bound	>12.5 µg/mL
CCOC(=O)c1c(C)c(-c2ccc(Cl)cc2)n(CC(=O)N/N=C/c2ccc([N+](=O)[O-])o2)c1C		resazurin	6.25 µg/mL	H37Rv (ATCC 27294)		inhibition	63%
COc1ccc(C(=O)Nc2ccc(C(=O)NN3C(=O)CSC3c3ccc([N+](=O)[O-])o3)cc2)cc1				H37Rv		MIC	>6.25 µg/mL
Cc1ccc2nc(SCC(=O)N/N=C/c3ccccc3)n(-c3ccccc3)c(=O)c2c1				H37Rv		MIC	>6.25 µg/mL
O=C(O)CNC(CO)C(=O)O		BACTEC		H37Rv		MIC	≥12.5 µg/mL
Nc1ccc(C(=O)O)c(O)c1				H37RV (DL8280-R)		MIC	0.1 µg/mL
O=C(OCCCOC(=O)c1cnccn1)c1cnccn1	Pyrazinamide-resistant	resazurin			pH 6.0	MIC90	>347 µM
Cc1nc([N+](=O)[O-])cn1C[C@H]1O[C@@H]2OC(C)(C)O[C@@H]2[C@H]2OC(C)(C)O[C@H]21		agar		H37Rv		MIC	>12.5 µg/mL
CC(=O)NCC1CN(c2ccc(C(C)=O)cc2)C(=O)O1				15 isolates (INH RIF-R)		MIC	1.5–4 µg/mL
CSCCOC(=O)c1cc(NC(=S)c2ccoc2C)ccc1Cl		BACTEC		H37Rv		MIC bound	>12.5 µg/mL
O=C(N/N=C(\COc1ccc(Cl)cc1)N=Cc1cccnc1)c1ccncc1				H37Rv(ATCC25584)		MIC	>100 µg/mL
CCOC(=O)c1cc(-c2ccc(Cl)cc2)n(C(C)C(=O)N/N=C/c2[nH]c(C)c(C(=O)OCC)c2C)c1C		resazurin	6.25 µg/mL	H37Rv (ATCC 27294)		inhibition	60%
CN1CCN(c2nc(Nc3ccc(C#N)c(C(F)(F)F)c3)nc(Oc3cccc4cccnc34)n2)CC1		agar		H37Rv		MIC97	250 µg/mL
CC(C)=CCOc1c2ccoc2cc2oc(=O)ccc12	Isoniazid rifampicin ethambutol-resistant	resazurin		H37Rv clinical isolate CRY8		MIC100	50 µg/mL
COc1ccc(C(=O)Nc2ccc(C(=O)NN3C(=O)CSC3c3ccc(Br)cc3)cc2)cc1			6.25 µg/mL	H37Rv		inhibition	11%
C[C@]1(COc2ccc(-n3cc(COc4ccc(F)cc4)nn3)cc2)Cn2cc([N+](=O)[O-])nc2O1		broth dilution / resazurin		ss18b non-replicating phase		MIC	8.6 µM
Cc1ccc2nc(SCC(=O)N/N=C/c3ccc(Br)cc3)n(-c3ccccc3)c(=O)c2c1				H37Rv		MIC	>6.25 µg/mL
CCCCCCCCCCCCCCCCNC(CC(=O)OCC)[C@H]1O[C@@H]2OC(C)(C)O[C@@H]2[C@H]1OCc1ccccc1				H37Rv		MIC	50 µg/mL
CC(=O)N1CCN(c2nc(Nc3ccc(C#N)c(C(F)(F)F)c3)nc(Oc3cccc4cccnc34)n2)CC1		BACTEC		H37Rv		MIC	>6.25 µg/mL
CCOC(=O)c1c(C)[nH]c(/C=N/NC(=O)Cn2c(C)c(C(=O)OCC)c(C)c2-c2ccc(Cl)cc2)c1C		resazurin		H37Rv (ATCC 27294)		EC90	>100 µg/mL
N#Cc1ccc(Nc2nc(Oc3cccc4cccnc34)nc(N3CCN(C(c4ccccc4)c4ccc(Cl)cc4)CC3)n2)cc1C(F)(F)F		BACTEC		H37Rv		MIC99	6.25 µg/mL
CC1=C(/C=C/C(C)=N/NC(=O)c2ccncc2)C(C)(C)CCC1		resazurin		H37Rv		MIC	≤0.1 µg/mL
CO[C@@H]1[C@H]2OC(C)(C)O[C@H]2O[C@@H]1C(N)CC(=O)O				H37Ra		MIC	>100 µg/mL
COc1cccc(/C=N/NC(=O)CSc2nc3ccc(C)cc3c(=O)n2-c2ccccc2)c1				H37Rv		MIC	>6.25 µg/mL
COC(=O)c1cnccn1	Pyrazinamide-resistant	resazurin			pH 6.6	MIC90	>724 µM
Cc1cc(OCc2cc(-c3ccc(OC[C@@]4(C)Cn5cc([N+](=O)[O-])nc5O4)cc3)no2)ccc1C(C)C		broth dilution / resazurin		H37Rv		MIC	0.99 µM
CCN(CC)CCOc1ccc(C=Nc2ccc3c4ccccc4n(CC)c3c2)cc1		resazurin	6.25 µg/mL	H37Rv		inhibition	8%
Cc1cc2c(cc1C)[n+](=O)c(C#N)c(Cl)n2[O-]				H37Rv		MIC	1.56 µg/mL
O=C1c2c(O)cccc2Cc2cc(CO)cc(O)c21.OCC1OC(O)C(O)C(O)C1O		BACTEC		H37Rv		MIC	≥12.5 µg/mL
CCOC(=O)c1cc(-c2ccc(Cl)cc2)n(C(C)C(=O)N/N=C/c2cn(C(C)=O)c3ccccc23)c1C		resazurin	6.25 µg/mL	H37Rv (ATCC 27294)		inhibition	27%
N#Cc1nc2ccccc2nc1N1CCN(c2ccc([N+](=O)[O-])cc2)CC1				H37Rv		EC50	>6.25 µg/mL
COc1ccc(OCc2cc(-c3ccc(OC[C@@]4(C)Cn5cc([N+](=O)[O-])nc5O4)cc3)no2)cc1		broth dilution / resazurin		H37Rv		MIC	1.05 µM
CCOC(=O)c1c(C)c(-c2ccc(Cl)cc2)n(CC(=O)NN=C2CCCCC2)c1C		resazurin	6.25 µg/mL	H37Rv (ATCC 27294)		inhibition	79%
COC(=O)c1nc2[nH]n(-c3ccccc3)c(=O)c2c2c1CCCCCCCCCC2		BACTEC		H37Rv		MIC bound	>12.5 µg/mL
CC[C@@H](CO)NCCN[C@@H](CC)CO		agar		H37Rv		MIC	1.56 µg/mL
NNC(=O)c1ccncc1				H37Rv		MIC	0.04 µg/mL
CO[C@H]1/C=C/O[C@@]2(C)Oc3c(C)c(O)c4c(O)c(c(/C=N/N5CCN(C)CC5)c(O)c4c3C2=O)NC(=O)/C(C)=C\C=C\[C@H](C)[C@H](O)[C@@H](C)[C@@H](O)[C@@H](C)[C@H](OC(C)=O)[C@@H]1C				H37Rv		MIC	3 µg/mL
CCOC(=O)c1cc(-c2ccc(C)cc2)n(C(C)C(=O)N/N=C/c2ccco2)c1C		resazurin	6.25 µg/mL	H37Rv (ATCC 27294)		inhibition	0%
Cc1cc(=O)[nH]c2nc3ccccc3n12		resazurin	6.25 µg/mL	H37Rv		inhibition	-10%
COc1ccc(C(=O)Nc2ccc(C(=O)N/N=C3\SCC(=O)N3C)cc2)cc1				H37Rv		MIC	>6.25 µg/mL
CC1(C)O[C@H]2[C@@H](O1)[C@@H](Cn1cncc1[N+](=O)[O-])O[C@@H]1OC(C)(C)O[C@@H]12		agar		H37Rv		MIC	12.5 µg/mL
COc1ccc(C(=O)Nc2ccc(C(=O)NN3C(=O)CSC3c3ccc(Cl)cc3)cc2)cc1			6.25 µg/mL	H37Rv		inhibition	40%
Cc1ccc(OCc2cn(-c3ccc(OC[C@@]4(C)Cn5cc([N+](=O)[O-])nc5O4)cc3)nn2)cc1		broth dilution / resazurin		ss18b non-replicating phase		MIC	8.66 µM
Cc1ccc2sc3cc(=O)cc(C)c-3nc2c1		BACTEC	12.5 µg/mL	H37Rv		inhibition	97%
N#Cc1nc2ccccc2nc1Cl				H37Rv		EC50	<6.25 µg/mL
Cc1ccc2nc(SCC(=O)N/N=C/c3ccccc3O)n(-c3ccccc3)c(=O)c2c1				H37Rv		MIC	>6.25 µg/mL
CC(C)N1CCN(c2nc(Nc3ccc(C#N)c(C(F)(F)F)c3)nc(Oc3cccc4cccnc34)n2)CC1		agar		H37Rv		MIC98	50 µg/mL
COC(C)(C)C/C=C/C(C)=C/C=C/C(C)=C/C=C/C(C)=C/C=C/C=C(C)/C=C/C=C(C)/C=C/C=C(C)/C=C/CC(C)(C)OC		BACTEC	12.5 µg/mL	H37Rv		inhibition	14%
O=C(OCCCl)c1cnccn1	Pyrazinamide-resistant	resazurin			pH 6.0	MIC90	>536 µM
COc1ccc2c(c1)[n+]([O-])c(C#N)c(N)[n+]2[O-]				H37Rv		MIC	>6.25 µg/mL
N/C(COc1ccc([N+](=O)[O-])cc1)=N/NC(=O)c1ccncc1				H37Rv(ATCC25584)		MIC	6.25 µg/mL
COc1cc2c(cc1Cl)[n+]([O-])c(C#N)c(N)[n+]2[O-]			6.25 µg/mL	H37Rv		inhibition	99%
CCCCCCCCCCCCCCCOC(COC[C@H]1O[C@@H]2OC(C)(C)O[C@@H]2[C@H]2OC(C)(C)O[C@H]21)Cn1ccnc1[N+](=O)[O-]		agar		H37Rv		MIC	6.25 µg/mL
Clc1nc2nsnc2nc1Cl		BACTEC		H37Rv		MIC bound	>12.5 µg/mL
N#Cc1nc2cc(Cl)ccc2nc1Cl			6.25 µg/mL	H37Rv		inhibition	58%
COc1cc2c3c(c1O)C1(C=CC(=O)C=C1)C[C@@H]3N(C)CC2		BACTEC		H37Rv		MIC	≥12.8 µg/mL
N#Cc1c(N2CCN(c3ccc([N+](=O)[O-])cc3)CC2)[n+](=O)c2ccccc2n1[O-]			6.25 µg/mL	H37Rv		inhibition	100%
Nc1ccn([C@@H]2O[C@H](C(O[C@@H]3O[C@H](CO)[C@@H](O)[C@H](N)[C@H]3O)[C@@H](O)[C@@H](O)[C@@H](O)[C@@H](O)CO)[C@@H](N)[C@H](O)[C@H]2O)c(=O)n1		BACTEC	12.5 µg/mL	H37Rv		inhibition	89%
O=C(N/N=C(\COc1ccccc1)N=Cc1cccnc1)c1ccncc1				H37Rv(ATCC25584)		MIC	25 µg/mL
CCOC(=O)NC(C)(C)CN(C(=O)OCC)C(C)(C)CO		BACTEC		H37Rv		MIC bound	>12.8 µg/mL
C[C@]1(COc2cccc(-n3cc(COc4ccc(OC(F)(F)F)cc4)nn3)c2)Cn2cc([N+](=O)[O-])nc2O1		broth dilution / resazurin		ss18b non-replicating phase		MIC	7.52 µM
COc1cccc(OC/C(N)=N\NC(=O)c2ccncc2)c1				H37Rv(ATCC25584)		MIC	12.5 µg/mL
COc1ccc(C(=O)Nc2ccc(C(=O)N/N=C/c3ccc(F)cc3)cc2)cc1			6.25 µg/mL	H37Rv		inhibition	2%
CC(C)c1ccc2c(c1)CCC1C2(C)CCCC1(C)C(O)c1ccccc1		BACTEC		H37Rv		MIC bound	≤12.5 µg/mL
CC(=O)Nc1ccc(OC/C(N)=N\NC(=O)c2ccncc2)cc1				INH-r		MIC	>100 µg/mL

Repeating the first 10 entries:

| compound | mutations | method | dose | strain or isolate | conditions | read-out | result |
|---|---|---|---|---|---|---|---|
| CCn1cc(C(=O)O)c(=O)c2cc(F)c(N3CCNCC3)cc21 |  |  |  | H37RV (INH-R) |  | MIC | 31.2 µg/mL |
| O=C1OC2(CCCCC2)OC(=O)C1=C/C=C/c1ccc([N+](=O)[O-])o1 |  | BACTEC |  | H37Rv |  | MIC bound | >12.5 µg/mL |
| C[N+](C)(CCCN1c2ccccc2Sc2ccc(Cl)cc21)Cc1ccccc1 |  |  |  | H37Rv |  | MIC | 1.11 µg/mL |
| CC1(C)O[C@H]2O[C@H](C(N)CC(=O)O)[C@H](OCc3ccccc3)[C@H]2O1 |  |  |  | H37Ra |  | MIC | >100 µg/mL |
| Cc1cn(-c2ccccc2)c(C)c(C(=O)O)c1=O |  | BACTEC | 12.5 µg/mL | H37Rv |  | inhibition | 23% |
| COc1ccc(N2CCN(c3nc(Nc4ccc(C#N)c(C(F)(F)F)c4)nc(Oc4cccc5cccnc45)n3)CC2)cc1 |  | agar |  | H37Rv |  | MIC99 | 6.25 µg/mL |
| c1ccc2c(c1)nc1nc3c(cn12)CCCC3 |  | resazurin |  | H37Rv |  | MIC bound | >6.25 µg/mL |
| CCOC(=O)CC(NC(C)CCCC(C)C)[C@H]1O[C@@H]2OC(C)(C)O[C@@H]2[C@H]1OCc1ccccc1 |  |  |  | H37Rv |  | MIC | 25 µg/mL |
| CCOc1cc(/C=N/NC(=O)c2ccc(NC(=O)c3ccc(OC)cc3)cc2)ccc1O |  |  |  | H37Rv |  | MIC | >6.25 µg/mL |
| CC1(C)O[C@H]2[C@@H](O1)[C@@H](Cn1ccnc1[N+](=O)[O-])O[C@@H]1OC(C)(C)O[C@@H]12 |  | agar |  | H37Rv |  | MIC | 6.25 µg/mL |

A number after MIC or MFC names an inhibition level or a share of isolates. An empty or dashed field is not shown. MIC bound comes from a single tested concentration. Percent inhibition refers to the dose given; in toxicity tests it is the harm to the cells. Neighbouring rows are from separate reports. ECn: concentration that inhibits the pathogen or its effect by n%.